Measured values from several laboratories, pooled; numbers as filed in NIAID ChemDB.

All rows: enzyme or target tests; organism: HIV-1; target: Reverse transcriptase

Blank or dashed fields: not listed here. Conditions beyond the fields shown may differ between rows. Fold resistance has wild type as its base. a–b is a range or a potency band. ICn: concentration for n% inhibition.

compound	strain	changes	method	endpoint	result
CC(C)(C)c1ccc(-n2nnnc2SCC(=O)Nc2ccc(-c3ccc(S(C)(=O)=O)cc3)cc2Cl)c(Cl)c1	WT		PicoGreen / fluorescence	IC50	<1 µM
CCc1cc(CCc2nc3ccccc3o2)c(=O)[nH]c1C		RT-Y181S	nucleotide incorporation	fold resistance	153
Cc1cc(C)c(-n2nnnc2SCC(=O)Nc2ccc(-c3ccc(CC(=O)O)cc3)cc2Cl)c(Cl)c1	WT		PicoGreen / fluorescence	IC50	<1 µM
CCN1c2ncc(CCOc3ccc(C(=O)Nc4ccc(CC(=O)O)cc4)cc3C)cc2C(=O)N(C)c2cccnc21	IIIB	RT-K103N Y181C	nucleotide incorporation / radiometric	fold resistance	1
CCN1c2ncc(CCOc3ccc(C(=O)O)c4c3CCCC4)cc2C(=O)N(C)c2ccc(OC)nc21	WT		nucleotide incorporation / radiometric	IC50	<0.1 µM
O=c1cc(Cc2ccccc2)nc(NCCCCO)[nH]1				Ki	410 µM
FC(F)(F)c1ccc2c(c1)CN(c1nn3c(C4CC4)nnc3c3ccccc13)CC2	98US_MSC5016		RT activity / fluorescence	IC90	7.95 µM
CCN1c2ncc(CCOc3cccc4c3ccc[n+]4[O-])cc2C(=O)Nc2c(C)cc(Cl)nc21		RT-V106A	nucleotide incorporation / radiometric	fold resistance	8.1
NCCCCNc1nc(Cc2ccccc2)cc(=O)[nH]1		RT-V106A		Ki	>1000 µM
CCN1c2ncc(CCOc3ccc(C(=O)N(C)c4ccc(C(=O)O)cc4)cc3C)cc2C(=O)N(C)c2cccnc21	IIIB		nucleotide incorporation / radiometric	IC50	<0.05 µM
COc1cc2c(cc1[N+](=O)[O-])CN(c1nn3c(C4CC4)nnc3c3ccccc13)CC2	KER2008		RT activity / fluorescence	IC90	74.9 µM
CC(C)(C#Cc1ccc(NC(=O)CSc2nnnn2-c2ccc(C3CC3)cc2Cl)c(Cl)c1)OCCO		RT-K103 Y181C	PicoGreen / fluorescence	IC50	<1 µM
c1ccc2c(c1)CCN(c1nn3c(-c4cscn4)nnc3c3ccccc13)C2	KER2008		RT activity / fluorescence	IC90	2.73 µM
Cc1cc(C(F)(F)F)cc(-n2nnnc2SCC(=O)Nc2ccc(C#CC(C)(C)O)cc2Cl)c1Cl	WT		PicoGreen / fluorescence	IC50	<1 µM
CCN1c2ncc(CCOc3ccc(-c4ccc(CC(=O)O)cc4)cc3)cc2C(=O)N(C)c2cccnc21	IIIB	RT-K103N Y181C	nucleotide incorporation / radiometric	fold resistance	>1
CC(C)(C)c1ccc(-n2nnnc2SCC(=O)Nc2ccc(OCC(=O)N3CCC(C(=O)O)CC3)cc2Cl)c(Cl)c1	WT		PicoGreen / fluorescence	IC50	<1 µM
CCN1c2ncc(CCOc3ccc(C(=O)NS(C)(=O)=O)cc3C)cc2C(=O)N(C)c2cccnc21	IIIB	RT-K103N Y181C	nucleotide incorporation / radiometric	fold resistance	>2
Cc1ccc(-n2nnnc2SCC(=O)Nc2ccc(-c3ccc(OCC(=O)O)cc3)cc2Cl)c(Cl)c1	WT		PicoGreen / fluorescence	IC50	<1 µM
COc1cc2c(cc1N)CN(c1nn3c(C4CC4)nnc3c3ccccc13)CC2	98US_MSC5016		RT activity / fluorescence	IC90	9.83 µM
CCN1c2ncc(CCOc3ccc(S(=O)(=O)c4ccc(C(=O)O)cc4)cc3C)cc2C(=O)N(C)c2cccnc21	IIIB	RT-K103N Y181C	nucleotide incorporation / radiometric	IC50	<0.05 µM
CC(C)(C)c1ccc(-n2nnnc2SCC(=O)Nc2ccc(NC(=O)Cc3ccc([N+](=O)[O-])cc3)cc2Cl)c(Cl)c1	WT		PicoGreen / fluorescence	IC50	<1 µM
CCN1c2ncc(CCOc3ccc(CCC(=O)O)c4ccccc34)cc2C(=O)N(C)c2ccc(F)nc21	WT		nucleotide incorporation / radiometric	IC50	<0.1 µM
CC(C)(C)c1ccc(-n2nnnc2SCC(=O)Nc2ccc(C(=O)N3CCOCC3)cc2Cl)c(Cl)c1		RT-K103 Y181C	PicoGreen / fluorescence	IC50	<1 µM
C=C1c2cc(CCOc3ccc(NS(C)(=O)=O)c4ccccc34)cnc2N(CC)c2ncccc2N1C		RT-Y188L	nucleotide incorporation / radiometric	IC50	>1 µM
Cc1c(Cc2ccccc2)nc(NCCCCN)[nH]c1=O		RT-Y188L		Ki	>1000 µM
CC(C)(C)c1ccc(-n2nnnc2SCC(=O)Nc2ccc(-c3cccc(C(=O)O)c3)cc2Cl)c(Cl)c1		RT-K103 Y181C	PicoGreen / fluorescence	IC50	<1 µM
CCN1c2ncc(CCOc3ccc(C(=O)O)c4c3CCN(C(=O)N(C)C)C4)cc2C(=O)N(C)c2cccnc21		RT-V106A	nucleotide incorporation / radiometric	fold resistance	1–10
O=C(CSc1nnnn1-c1ccc(C2CC2)cc1Cl)Nc1ccc(C(=O)NCc2cccc[n+]2[O-])cc1Cl	WT		PicoGreen / fluorescence	IC50	<1 µM
CCN1c2ncc(CCOc3ccc(S(=O)(=O)Nc4ccc(C(=O)O)cc4)cc3C)cc2C(=O)N(C)c2cccnc21	IIIB	RT-K103N Y181C	nucleotide incorporation / radiometric	fold resistance	1
CC(C)(C#Cc1ccc(NC(=O)CSc2nnnn2-c2cc(Cl)ccc2Cl)c(Cl)c1)NC(=O)CN1CCNCC1	WT		PicoGreen / fluorescence	IC50	<1 µM
CC(=O)Nc1ccc2c(c1)CN(c1nn3c(C)nnc3c3ccccc13)CC2	KER2008		RT activity / fluorescence	IC90	20 µM
CCN1c2ncc(CCOc3ccc(-c4cc(C(=O)O)c[n+]([O-])c4)cc3C)cc2C(=O)N(C)c2cccnc21	IIIB	RT-K103N Y181C	nucleotide incorporation / radiometric	fold resistance	1
CCN1c2ncc(CCOc3ccc(CC(C)C(=O)O)c4ccccc34)cc2C(=O)Nc2c(C)ccnc21		RT-Y188L	nucleotide incorporation / radiometric	fold resistance	>10
CC(C)(N)C#Cc1ccc(NC(=O)CSc2nnnn2-c2cc(Br)ccc2Cl)c(Cl)c1		RT-K103 Y181C	PicoGreen / fluorescence	IC50	<1 µM
c1ccc(-c2nnc3c4ccccc4c(N4CCc5ccccc5C4)nn23)cc1	98US_MSC5016		RT activity / fluorescence	IC90	>100 µM
CCN1c2ncc(CCOc3ccc(NC(=O)c4ccccc4C(=O)O)cc3C)cc2C(=O)N(C)c2cccnc21	IIIB		nucleotide incorporation / radiometric	IC50	<0.05 µM